Anti-infective test results gathered from many reports (values: NIAID ChemDB through PubChem).

Common to all: host cell toxicity; cells: MT-4; endpoint: CC50

CCn is the concentration with n% toxicity to the cells.

Cc1c(Cc2c(Cl)cccc2Cl)nc(SCc2ccc3c(c2)OCO3)[nH]c1=O ; method: MTT ; result: >57 µM
Cc1cn([C@H]2C=C[C@@H](CO)O2)c(=O)[nH]c1=O ; method: MTT ; result: 30 µg/mL
C=C(C)[C@]12C[C@@H](COC(C)=O)[C@@]34OC5(O[C@@H]1[C@@H]3[C@@H]1O[C@]1(COC(=O)c1ccccc1)[C@@H](O)[C@@]1(O)[C@H]4[C@H]([C@H](C)[C@@H]1O)[C@H](C)CC(OC(=O)c1ccccc1)C(OC(C)=O)C(OC(=O)c1ccccc1)CC[C@H]5O)O2 ; method: luminescence ; result: >0.025 µM
CC(C)=CCc1cc(C2CC(=O)c3c(O)cc(O)c(CC=C(C)C)c3O2)cc(O)c1O ; result: 55 µg/mL
C1CNCCNCCCN(CCCC2CNCCCNCCNCCCN2)CCNC1 ; result: >445 µM
CC(C)(C)OC(=O)[C@@H]1CCCN1C[C@H](O)[C@H](Cc1ccccc1)NC(=O)[C@H](CC(N)=O)NC(=O)OCc1ccccc1 ; method: MTT ; result: >233 µg/mL
CCc1c(C(C)C2CCCCC2)nc(SCC(=O)c2ccccc2)[nH]c1=O ; method: MTT ; result: 194 µM
Cc1cn([C@H]2C[C@H](N=[N+]=[N-])[C@@H](CO)O2)c(=O)[nH]c1=O ; result: 75 µM
Nc1ncnc2c1ncn2[C@H]1C=C[C@@H](OCP(=O)(O)O)O1 ; result: >100 µM
CC(C)[C@@H](C)/C=C/[C@@H](C)[C@H]1CCC2[C@@]34C=C[C@]5(C[C@@H](O)CC[C@]5(C)C3CC[C@@]21C)OO4 ; result: 15.6 µM
CCOP(=O)(N[C@@H](CC(C)C)C(=O)OC)OC[C@H]1O[C@@H](n2cc(C)c(=O)[nH]c2=O)C[C@@H]1N=[N+]=[N-] ; method: MTT ; result: 233 µg/mL
C[C@H](CC(=O)C[C@@H](C)[C@H]1CC(=O)[C@@]2(C)C3=C(C(=O)C[C@]12C)[C@@]1(C)CCC(=O)C(C)(C)[C@@H]1C[C@@H]3O)C(=O)O ; result: >1000 µM
O=c1cc(-c2ccc(O)cc2)oc2cc(O)cc(O)c12 ; result: >500 µg/mL
Cc1cn([C@H]2C[C@H](N=[N+]=[N-])[C@@H](CO)O2)c(=O)[nH]c1=O ; method: MTT ; result: >2 µg/mL
Cc1cn([C@@H]2O[C@H](CO[Si](C)(C)C(C)(C)C)C3(OC(=O)N=C3N)[C@H]2O[Si](C)(C)C(C)(C)C)c(=O)[nH]c1=O ; result: 77 µM
COc1ccc(C2CC(=O)c3c(cc(O)c(CC=C(C)C)c3O)O2)c(CC=C(C)C)c1O ; result: >100 µg/mL
CO[C@@H]1C=C2C3CC[C@H]([C@H](C)/C=C/C(C)C(C)C)[C@@]3(C)CCC2[C@@]2(C)CC[C@H](O)C[C@]12O ; result: 31.3 µM
COc1ccc(C(=O)CSc2nc(C(C)C3CCCCC3)c(C)c(=O)[nH]2)cc1 ; method: MTT ; result: 28 µM
CCc1cc(NCc2nc3c(C)ccc(C)c3o2)c(=O)[nH]c1C ; result: >60 µM
N#C[C@]1(CO)O[C@@H](n2ccc(N)nc2=O)C[C@@H]1O ; method: MTT ; result: 0.17 µM
O=C(c1ccccc1)c1ccc2c(c1)nc1n2C(c2c(F)cccc2F)SC1 ; result: 26.7 µM
CC(C)(C)NC(=O)[C@@H]1CN(Cc2cccnc2)CCN1C[C@H](C[C@@H](Cc1ccccc1)C(=O)N[C@H]1c2ccccc2C[C@H]1OC(=O)CCCCO[C@H]1O[C@H](CO)[C@@H](O)[C@H](O)[C@@H]1O)OC(=O)CCCCO[C@H]1O[C@H](CO)[C@@H](O)[C@H](O)[C@@H]1O ; method: MTT ; result: >50 µM
CC1(C)C=Cc2cc(-c3coc4cc(O)cc(O)c4c3=O)cc(O)c2O1 ; result: 22 µg/mL
O=c1[nH]c(=O)n([C@H]2C[C@H](F)[C@@H](CO)O2)cc1Cl ; result: >500 µM
Fc1ccc2c(c1)nc1n2C(c2c(F)cccc2Cl)SC1 ; result: 34.7 µM
Nc1ncnc2c1ncn2CCOCP(=O)(O)O ; result: 105 µM
c1ccc(-c2nnc3n2-c2ccccc2-n2c(nnc2-c2ccccc2)C3)cc1 ; method: MTT ; result: 12 µM
Cc1cn([C@@H]2O[C@H](CO[Si](C)(C)C(C)(C)C)C3(OC(=O)N(C)C3=N)[C@H]2O[Si](C)(C)C(C)(C)C)c(=O)n(C)c1=O ; result: ≥175 µM
Cc1c(Cc2c(Cl)cccc2Cl)nc(SCc2ccc(Br)cc2)[nH]c1=O ; method: MTT ; result: 13 µM
C1CNCCNCCCN(CCCN2CCCNCCNCCCNCC2)CCNC1 ; result: >1865 µM
[N-]=[N+]=N[C@H]1C[C@H](n2cc(CO)c(=O)[nH]c2=O)O[C@@H]1CO ; result: >500 µM
Cc1c(C(C)C2CCCCC2)nc(SCC(=O)c2ccccc2)[nH]c1=O ; method: MTT ; result: 259 µM
O[C@H]1[C@H](O)[C@@H](O)CN2CC[C@H](O)[C@H]12 ; method: MTT ; result: >250 µg/mL
C1CNCCNCCCN[C@H]([C@@H]2CNCCCNCCNCCCN2)CNC1 ; result: 362 µM
OCc1cn(Cc2ccncc2)c(Sc2ccccc2)c1-c1ccccc1 ; result: >200 µM
Cc1c(Cc2ccc(F)cc2)nc(SCc2ccc([N+](=O)[O-])cc2)[nH]c1=O ; method: MTT ; result: >65 µM
CC(C)=CCC/C(C)=C/CC/C(C)=C/Cc1c(O)cc(C)c(C(=O)O)c1O ; result: 40 µM
CC(C)=CCc1c(O)cc(-c2cc3ccc(O)cc3o2)cc1O ; result: 19 µg/mL
Nc1ccn([C@H]2C[C@H](O)C(/C=C/Cl)(CO)O2)c(=O)n1 ; method: MTT ; result: 4.6 µM
COC(=O)CS(=O)(=O)c1cnc(Nc2ccc(C#N)cc2)nc1Oc1c(C)cc(C#N)cc1C ; method: MTT ; result: >208.4 µM
Cc1c(Cc2c(F)cccc2F)nc(SCc2ccc(C#N)cc2)[nH]c1=O ; method: MTT ; result: >65 µM
c1ccc(Cc2nnc3n2-c2ccccc2-n2c(Cc4ccccc4)nnc2C3)cc1 ; method: MTT ; result: 58 µM
Fc1ccc2nc3n(c2c1)C(c1c(F)cccc1Cl)SC3 ; result: 28.2 µM
CC(C)[C@@H](C)/C=C/[C@@H](C)[C@H]1CC[C@H]2C3=CC=C4C[C@@H](O)CC[C@]4(C)[C@H]3CC[C@]12C ; result: 1000 µM
CC(C)c1c(COC(N)=O)cn(Cc2ccncc2)c1Sc1ccccc1 ; result: 127 µM
Cc1cn([C@H]2C[C@H](N=[N+]=[N-])[C@@H](CO)O2)c(=O)[nH]c1=O ; method: MTT ; result: >6.3 µM
CC(c1cc(=O)[nH]c(SCC(=O)c2ccccc2)n1)C1CCCCC1 ; method: MTT ; result: 267 µM
O=c1ccn([C@H]2CC[C@@H](CO)O2)c(=O)[nH]1 ; method: MTT ; result: >250 µg/mL
Cc1cccc2c1nc1n2C(c2c(F)cccc2Cl)SC1 ; result: >392 µM
C=C(C)[C@]12C[C@@H](COC(C)=O)[C@@]34OC5(O[C@@H]1[C@@H]3[C@@H]1O[C@]1(CO)[C@@H](O)[C@@]1(O)[C@H]4[C@H]([C@H](C)[C@@H]1OC(=O)c1ccccc1)[C@H](C)CC(OC(=O)c1ccccc1)C(OC(C)=O)C(OC(=O)c1ccccc1)CC[C@H]5O)O2 ; method: luminescence ; result: >0.025 µM
Cc1cc(C#N)cc(C)c1Oc1nc(Nc2ccc(C#N)cc2)ncc1SCC(=O)N1CCSCC1 ; method: MTT ; result: >208.4 µM
NC(N)=NCCC[C@H]1/C=C/[C@H](Cc2ccc3ccccc3c2)C(=O)NCC(=O)N[C@H](Cc2ccc(O)cc2)C(=O)N[C@@H](CCCN=C(N)N)C(=O)N1 ; method: MTT ; result: >100 µM
C[C@@H](Cn1cnc2c(N)nc(N)nc21)OCP(=O)(O)O ; result: >300 µM
c1cc(CN2CCCNCCNCCCNCC2)ccc1CN1CCCNCCNCCCNCC1 ; method: MTT ; result: 18 µM
Cc1ccnc2c1NC(=O)c1cccnc1N2C1CC1 ; method: MTT ; result: >15.02 µM
CC(C)(C)NC(=O)[C@@H]1CN(Cc2cccnc2)CCN1C[C@@H](O)C[C@@H](Cc1ccccc1)C(=O)N[C@H]1c2ccccc2C[C@H]1OC(=O)CCCCO[C@H]1O[C@H](CO)[C@@H](O)[C@H](O)[C@@H]1O ; method: MTT ; result: >1000 µM
O=c1ccn([C@H]2C[C@H](F)[C@@H](CO)O2)c(=O)[nH]1 ; result: 1.1 µM
CC1c2nnc(-c3ccc(Cl)cc3)n2-c2ccccc2-n2c(-c3ccc(Cl)cc3)nnc21 ; method: MTT ; result: 12 µM
CC(C)c1c(CO)cn(Cc2ccncc2)c1Sc1ccccc1 ; result: 29 µM
ClC1(Cl)c2nnc(-c3ccccc3)n2-c2ccccc2-n2c(-c3ccccc3)nnc21 ; method: MTT ; result: 30 µM
FC(F)(F)c1ccc2c(c1)nc1n2C(c2c(Cl)cccc2Cl)SC1 ; result: 25.9 µM
CC(C)c1c(CO)cn(Cc2ccncc2)c1Sc1cc(Cl)cc(Cl)c1 ; result: >200 µM
COc1cccc(-c2nnc3n2-c2ccccc2-n2c(-c4cccc(OC)c4)nnc2C3C)c1 ; method: MTT ; result: >200 µM
Cc1c(OC(=O)CCCCO[C@H]2O[C@H](CO)[C@@H](O)[C@H](O)[C@@H]2O)cccc1C(=O)N[C@@H](CSc1ccccc1)[C@@H](CN1C[C@H]2CCCC[C@H]2C[C@H]1C(=O)NC(C)(C)C)OC(=O)CCCCO[C@H]1O[C@H](CO)[C@@H](O)[C@H](O)[C@@H]1O ; method: MTT ; result: >50 µM
CCc1nnc2n1-c1ccccc1-n1c(CC)nnc1C2 ; method: MTT ; result: >200 µM
CC(C)(C)NC(=O)[C@@H]1C[C@@H]2CCCC[C@@H]2CN1C[C@@H](OC(=O)CCCCO[C@H]1O[C@H](CO)[C@@H](O)[C@H](O)[C@@H]1O)[C@H](Cc1ccccc1)NC(=O)[C@H](CC(N)=O)NC(=O)c1ccc2ccccc2n1 ; method: MTT ; result: >50 µM
Cc1nc2ccccc2c(-c2ccc3c4c(cccc24)C2CC32)c1[C@H](OC(C)(C)C)C(=O)O ; method: ATP ; result: 31.8 µM

The last 4 rows once more:

Cc1c(OC(=O)CCCCO[C@H]2O[C@H](CO)[C@@H](O)[C@H](O)[C@@H]2O)cccc1C(=O)N[C@@H](CSc1ccccc1)[C@@H](CN1C[C@H]2CCCC[C@H]2C[C@H]1C(=O)NC(C)(C)C)OC(=O)CCCCO[C@H]1O[C@H](CO)[C@@H](O)[C@H](O)[C@@H]1O ; method: MTT ; result: >50 µM
CCc1nnc2n1-c1ccccc1-n1c(CC)nnc1C2 ; method: MTT ; result: >200 µM
CC(C)(C)NC(=O)[C@@H]1C[C@@H]2CCCC[C@@H]2CN1C[C@@H](OC(=O)CCCCO[C@H]1O[C@H](CO)[C@@H](O)[C@H](O)[C@@H]1O)[C@H](Cc1ccccc1)NC(=O)[C@H](CC(N)=O)NC(=O)c1ccc2ccccc2n1 ; method: MTT ; result: >50 µM
Cc1nc2ccccc2c(-c2ccc3c4c(cccc24)C2CC32)c1[C@H](OC(C)(C)C)C(=O)O ; method: ATP ; result: 31.8 µM

Conditions beyond the fields shown may differ between rows.